# pKd: −log10 of the molar value.
# Key:
# Assay in all cases: ELISA; purified trimeric gp140 coated on the plate (100 ng per well, over night, 4°C); CD4-Fc in 8 concentrations between 0 and 10 nM in PBS/0.1% Tween/0.1% BSA, 1.5 h, room temperature; HRP anti-human IgG, chemiluminescence; KD from nonlinear regression fits (PRISM)
# [1] = molecular target: NL4-3/ADA gp140 trimer (HIV-1 strain NL4-3 | HIV-1 strain ADA)
# [2] = molecular target: NL4-3 gp140 trimer (HIV-1 strain NL4-3)
# [3] = molecular target: ADA gp140 trimer (HIV-1 strain ADA)
substance,measurement,setting,value
CD4-Fc (from UniProt P01730 26-396) (Fc fusion),pKd,[1],8.29
same,pKd,[2],8.28
same,pKd,[3],8.48

# — paper PMC4048260
